Only a part is listed here, and it is no random draw.

The source of these data is the supplement of paper PMC12494721.

Holding throughout (conditions): incubation time: 27 h, anaerobic, 37 °C
Assay [1] deals with Clostridium sporogenes DSM 1664. As to the kind of experiment: growth (OD595) fold change vs plate DMSO controls (fold change (ratio)); higher = more growth. Summed up: (§1)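 Shaken 96-well cultures in mGAM, grown anaerobically for 27 h at 37 °C, were read at 595 nm. OD came from blank-subtracted readings, corrected for background with 20 µM compound solutions in water and scaled by a calibration factor of 5. Growth is the fold change versus the plate's median DMSO control. Values average 2 biological replicates, and any fold change above 1.5 is NA.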

Assay [2] deals with Escherichia coli IAI1. The assay is described as above. Summed up:
as §1

Assay [3] deals with Klebsiella aerogenes DSM 30053. Described as above. Summed up: as §1
Assay [4] concerns Ruminococcus gnavus DSM 108212. The assay is described as above. Summed up:
as §1

In assay [5] the test system is Klebsiella aerogenes DSM 30053. As to the kind of experiment: fold change of Histamine concentration vs plate DMSO controls (fold change (ratio)); higher = more amine produced, active = hit call of the paper (significant change in both replicates, either direction). Summed up:
(§2)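 Using LC–triple-quadrupole MS with dynamic MRM, amines were quantified against external calibration curves and corrected for drift within each batch. Samples were whole anaerobic mGAM cultures of four gut strains, grown 27 h at 37 °C from OD 0.1 before 1:1 dilution, extracted with cold acetonitrile/methanol containing 0.1% formic acid and centrifuged. Compounds were present at 20 µM final (sweeteners at 50 µM final). The numbers are fold changes versus plate DMSO controls, each the mean of 2 biological replicates.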

In assay [6] the test system is Escherichia coli IAI1. In words: fold change of Putrescine concentration vs plate DMSO controls (fold change (ratio)); higher = more amine produced, active = hit call of the paper (significant change in both replicates, either direction). Summed up: as §2
Assay [7] deals with Klebsiella aerogenes DSM 30053. The description is as above. An outline of the steps: as §2
Assay [8] relates to Clostridium sporogenes DSM 1664. In words: fold change of Tryptamine concentration vs plate DMSO controls (fold change (ratio)); higher = more amine produced, active = hit call of the paper (significant change in both replicates, either direction). Summed up: as §2
The subject of assay [9] is Ruminococcus gnavus DSM 108212. Described as above. Summed up: as §2
The test system of assay [10] is Escherichia coli IAI1. In words: fold change of Cadaverine concentration vs plate DMSO controls (fold change (ratio)); higher = more amine produced, active = hit call of the paper (significant change in both replicates, either direction). An outline of the steps:
as §2

Assay [11] has as its system Klebsiella aerogenes DSM 30053. The assay is described as above. Summed up: as §2
For assay [12], the system named is Ruminococcus gnavus DSM 108212. In words: fold change of 2-Phenylethylamine concentration vs plate DMSO controls (fold change (ratio)); higher = more amine produced, active = hit call of the paper (significant change in both replicates, either direction). An outline of the steps: as §2

Take `CCCCOP(=O)(OCCCC)OCCCC` [Tributyl PO4] (20 µM): the growth is 0.846 in [1], 1 with Escherichia coli IAI1 [2], 1.01 in assay [3] and 0.995 in assay [4]. Also, the “fold change of Histamine concentration” value in assay [5] is inactive: 0.976. The figures for the “fold change of Putrescine concentration” value (in the assay on Escherichia coli IAI1 [6]; in assay [7]) were inactive: 0.934 and inactive: 0.988, respectively. In addition, the entries for the “fold change of Tryptamine concentration” value in assay [8] and in [9] were inactive: 1.08 and inactive: 1.01, respectively. The “fold change of Cadaverine concentration” value in the assay on Escherichia coli IAI1 [10] was inactive: 1.07; in [11], inactive: 1.02. Moreover, the “fold change of 2-Phenylethylamine concentration” value in assay [12] was inactive: 1.08.
